{
  "source": "patent US20260166162A1",
  "about": "“CARBON CHAIN SUBSTANCE FOR REGULATING TRANSMEMBRANE TRANSPORT AND FLUIDITY OF CELL MEMBRANES, AND PREPARATION AND USE THEREOF” (priority 2022, published 2026)",
  "tested_on": "viruses and bacteria",
  "conditions": "concentration 0.035 mM",
  "data": [
    {"substance": "ALA-HSA: serum albumin grafted with linolenic acid by amide bonds (Example 1)", "values": [
      {"measurement": "virus killing and bacterial killing abilities", "value": "greater than 99%"}
    ]}
  ]
}
